Laboratory results taken from publication PMC5874247.
Construct, isoform or probe ends are uncertain for at least one entry.

Protein sequences, listed by entry. Tags and fused reporters are not part of them. Lines headed by an entry give the natural chain unless they say otherwise; changes in a name come on top.
UniProt P0A9A9: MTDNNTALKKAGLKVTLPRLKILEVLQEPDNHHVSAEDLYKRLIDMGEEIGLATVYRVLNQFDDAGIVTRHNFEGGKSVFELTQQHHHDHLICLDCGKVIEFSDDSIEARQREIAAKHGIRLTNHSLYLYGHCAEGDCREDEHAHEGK

Target: Fur (UniProt P0A9A9)
Assay: EMSA
Settings: 100 uM Mn2+, 1 mM Mg2+; EMSA: 10 mM Tris-borate pH 7.5, 40 mM KCl, 7.5% glycerol, 1 mM MgCl2, 100 uM MnCl2, 4 mM DTT, 100 ug/mL BSA, 1 ug/mL sonicated salmon sperm DNA, 5 ng DNA in 25 uL, 37 C; recombinant protein; residues 1-148; probe letters rebuilt from the primers and the genome

“TGCAAATTTGTGAAGCTTATCCTGTTATTATTTTAAGTTTCATGCCAAATTCTCTCACCAGATAATGCCGCCCTCTTCCGAAAAATAATCAAGAGGCCAAACAATATCTAAAATGATACAACTGTATCTATTCCCCTGAAAAATACATTATTCATTTGTATATTTTCCTCATCATTGCTTTTTATTTAAATCATCCGATAATCCCCTGAATATAATTATGTCAATAACCATCAGAAAAAGTGGATGATGAGGAAAAGGAT (double strand) [T6SS1 promoter fragment]”: binds.
